Anti-infective test results gathered from many reports (values: NIAID ChemDB through PubChem).

Shared fields: target-level tests; organism: HIV-1; protein: Protease

ICn: concentration for n% inhibition.

CCOC(=O)[C@]12CCC(C)(C)CC1C1=CCC3[C@@]4(C)CCC(=O)[C@@](C)(COC(=O)CCCC(=O)O)C4CC[C@@]3(C)[C@]1(C)CC2 ; method: substrate cleavage / fluorescence ; measure: IC50 ; value: 27.7 µM
CC(C)C[C@H](NC(=O)[C@H](CCS(C)(=O)=O)NC(=O)CCCCCCCCCCCCCCC(=O)N[C@@H](CC(N)=O)C(=O)N[C@@H](Cc1ccccc1)C(=O)O)C(=O)N[C@@H](Cc1ccccc1)C(N)=O ; measure: IC50 ; value: 1.9 µM
CC1(C)CC[C@]2(C(=O)NCCCCCC(=O)O)CC[C@]3(C)C(=CCC4[C@@]5(C)CC[C@H](OC(=O)CCCCC(=O)O)C(C)(C)C5CC[C@]43C)C2C1 ; method: HPLC ; measure: IC50 ; value: 1.7 µM
Cc1cccc(C)c1N(C)CC(=O)N[C@@H](Cc1ccccc1)C[C@H](O)[C@H](Cc1ccccc1)NC(=O)O[C@H]1CO[C@H]2OCC[C@H]21 ; measure: IC50 ; value: 0.0024 µM
CCOC(=O)[C@]12CCC(C)(C)CC1C1=CCC3[C@@]4(C)CC[C@H](OC(=O)CC(C)(C)C(=O)O)[C@@](C)(COC(=O)CC(C)(C)C(=O)O)C4CC[C@@]3(C)[C@]1(C)CC2 ; method: substrate cleavage / fluorescence ; measure: IC50 ; value: 17.2 µM
CCCCCCCCCCCCCC(=O)C1=C([O-])C(CO)OC1=O.[Na+] ; method: HPLC ; measure: IC50 ; value: 135 µM
CC1(C)CC2C3=CCC4[C@@]5(C)CC[C@H](O)C(C)(C)C5CC[C@@]4(C)[C@]3(C)CC[C@@]2(C)[C@H](O)C1 ; method: HPLC ; measure: IC50 ; value: 18.8 µM
Cc1cc2oc(=O)[nH]c2c(C)c1OCC(=O)N[C@@H](Cc1ccccc1)C[C@H](O)[C@H](Cc1ccccc1)NC(=O)O[C@H]1CO[C@H]2OCC[C@H]21 ; measure: IC50 ; value: <0.0005 µM
Cc1cc(=O)c2c(O)c3c(O)cc(=O)c4c3c3c(cc(O)c1c23)C(C)(C)C=4O ; method: HPLC ; measure: IC50 ; value: 21 µM
COC(=O)[C@]12CCC(C)(C)C[C@H]1C1=CC[C@@H]3[C@@]4(C)CC/C(=N\O)C(C)(C)[C@@H]4CC[C@@]3(C)[C@]1(C)CC2 ; method: HPLC ; measure: IC50 ; value: 9.5 µM
CC[C@H](C)[C@H](NC(=O)OCc1ccccc1)C(=O)N[C@@H](Cc1ccccc1)C(=O)N[C@@H]1[C@H](CC(=O)N[C@H](C(=O)OC)C(C)C)CC[C@H]1O ; method: absorbance ; measure: IC50 ; value: 3 µM
C[C@H]1[C@H](C)CC[C@]2(C(=O)O)CC[C@]3(C)C(=CC[C@@H]4[C@@]5(C)CC[C@H](OC(=O)C(=O)O)C(C)(C)[C@@H]5CC[C@]43C)[C@H]12 ; method: HPLC ; measure: IC50 ; value: 7 µM
CCCCCCCC(=O)OC1OC(=O)C(C)(C(C)=O)C1C ; method: HPLC ; measure: IC50 ; value: 523 µM
CC(=O)Nc1ccc(S(=O)(=O)N(CC(C)C)C[C@@H](O)[C@H](Cc2ccccc2)NC(=O)[C@H](C)CS(C)(=O)=O)cc1 ; method: fluorescence ; measure: IC50 ; value: 0.022 µM
Cc1cc2n[nH]nc2c(C)c1OCC(=O)N[C@@H](Cc1ccccc1)C[C@H](O)[C@H](Cc1ccccc1)NC(=O)O[C@H]1CO[C@H]2OCC[C@H]21 ; measure: IC50 ; value: <0.0005 µM
CCOC(=O)[C@]12CCC(C)(C)CC1C1=CCC3[C@@]4(C)CC[C@H](O)[C@@](C)(CO)C4CC[C@@]3(C)[C@]1(C)CC2 ; method: substrate cleavage / fluorescence ; measure: IC50 ; value: >100 µM
Cc1c(O)cccc1C(=O)N[C@@H](CSc1ccccc1)[C@H](O)CN1C[C@H]2SCC[C@H]2C[C@H]1C(=O)NC(C)(C)C ; method: fluorescence ; measure: IC50 ; value: 0.0003 µg/mL
CC[C@H](C)[C@H](NC(=O)OC(C)(C)C)C(=O)N[C@H]1CC[C@@H](CC(=O)N[C@H](C(=O)OC)C(C)C)[C@@H]1O ; method: absorbance ; measure: IC50 ; value: >10 µM
CC(=O)N[C@@H](Cc1c[nH]c2ccccc12)C(=O)N[C@H](C(=O)N[C@@H](Cc1ccccc1)[C@H](O)[C@@H](O)[C@H](Cc1ccccc1)NC(=O)[C@@H](NC(C)=O)C(C)C)C(C)C ; method: substrate cleavage ; measure: IC50 ; value: 0.005 µM
CC(C)C[C@H](NC(=O)[C@@H](NC(=O)CCCCCCCCCCCCCCC(=O)N[C@@H](CC(N)=O)C(=O)N[C@@H](Cc1ccccc1)C(=O)O)C(C)O)C(=O)N[C@H](C(N)=O)C1CCCCC1 ; measure: Ki ; value: 1.1 µM
CCC(C)CCCCCCCCCCCCC(=O)C1=C([O-])C(CO)OC1=O.[Na+] ; method: HPLC ; measure: IC50 ; value: 109 µM
COc1ccc(C2C3(CO)C4N(C(=O)OC(C)(C)C)C5C2(CO)C2N(C(=O)OC(C)(C)C)C3C4(CO)C(c3ccc(OC)cc3)C52CO)cc1 ; method: absorbance ; measure: IC50 ; value: >50 µM
CC[C@H](C)[C@H](NC(=O)OC(C)(C)C)C(=O)N[C@@H]1[C@H](CC(=O)N[C@H](C(=O)OC)C(C)C)CC[C@H]1O ; method: absorbance ; measure: IC50 ; value: 10 µM
Cc1ccnc(C)c1OCC(=O)N[C@@H](Cc1ccccc1)C[C@H](O)[C@H](Cc1ccccc1)NC(=O)O[C@H]1CO[C@H]2OCC[C@H]21 ; measure: IC50 ; value: ~0.0005 µM
CC(O)/C=C/C1OC(=O)CC1Nc1ccc(C=O)cc1 ; method: HPLC ; measure: IC50 ; value: 468 µM
C[C@@H](O)[C@H](NC(=O)Oc1ccccc1)C(=O)N[C@@H](Cc1ccccc1)[C@H](O)[C@@H](O)[C@H](Cc1ccccc1)NC(=O)c1cc(=O)c2ccccc2[nH]1 ; method: substrate cleavage ; measure: IC50 ; value: 0.5 µM
CC1(C)CC[C@]2(C(=O)O)CC[C@]3(C)C(=CCC4[C@@]5(C)CC[C@H](OC(=O)CCC(=O)O)C(C)(C)C5CC[C@]43C)C2C1 ; method: HPLC ; measure: IC50 ; value: 4 µM
Cc1cccc(C)c1NCC(=O)N[C@@H](Cc1ccccc1)C[C@H](O)[C@H](Cc1ccccc1)NC(=O)O[C@H]1CO[C@H]2OCC[C@H]21 ; measure: IC50 ; value: <0.0005 µM
COC(=O)[C@@H](NC(=O)C[C@@H]1CC[C@H](NC(=O)[C@H](Cc2ccccc2)NC(=O)OC(C)(C)C)[C@H]1O)C(C)C ; method: absorbance ; measure: IC50 ; value: >10 µM
CC(C)C[C@H](NC(=O)CCCCCCCCCCCCCCC(=O)N[C@@H](CC(N)=O)C(=O)N[C@@H](Cc1ccccc1)C(=O)O)C(=O)N[C@@H](CC(C)C)C(=O)N[C@@H](Cc1ccccc1)C(N)=O ; measure: IC50 ; value: 0.87 µM
COC(=O)[C@H](CC(C)C)NC(=O)C[C@@H]1CC[C@H](NC(=O)[C@H](Cc2ccccc2)NC(=O)OC(C)(C)C)[C@H]1O ; method: absorbance ; measure: IC50 ; value: >10 µM
CC(=O)N[C@@H](Cc1ccccc1)C(=O)N[C@@H](CCC(=O)O)C(=O)N[C@@H](Cc1ccccc1)[C@H](O)[C@@H](O)[C@H](Cc1ccccc1)NC(=O)[C@@H](NC(C)=O)C(C)C ; method: substrate cleavage ; measure: IC50 ; value: 0.13 µM
CC(C)C[C@H](NC(=O)[C@@H](NC(=O)CCCCCCCCCCCCCCC(=O)N[C@@H](Cc1ccccc1)C(=O)N[C@@H](Cc1ccccc1)C(=O)O)C(C)O)C(=O)N[C@@H](Cc1ccccc1)C(N)=O ; measure: Ki ; value: 0.24 µM
CC(C)CCCCCCCCCCCC(=O)C1=C([O-])C(CO)OC1=O.[Na+] ; method: HPLC ; measure: IC50 ; value: 110 µM
C[C@@H](O)[C@H](NC(=O)c1cc(=O)c2ccccc2[nH]1)C(=O)N[C@@H](Cc1ccccc1)[C@H](O)[C@@H](O)[C@H](Cc1ccccc1)NC(=O)c1cc(=O)c2ccccc2[nH]1 ; method: substrate cleavage ; measure: IC50 ; value: 2 µM
C=C(C)[C@@H]1CC[C@]2(C(=O)O)CC[C@]3(C)[C@H](CC[C@@H]4[C@@]5(C)CC[C@H](OC(=O)CC(=O)O)C(C)(C)C5CC[C@]43C)[C@@H]12 ; method: HPLC ; measure: IC50 ; value: 6 µM
COC(=O)[C@@H](NC(=O)C[C@H]1CC[C@@H](NC(=O)[C@H](Cc2ccccc2)NC(=O)OC(C)(C)C)[C@@H]1O)C(C)C ; method: absorbance ; measure: IC50 ; value: >10 µM
Cc1c(O)cccc1C(=O)N[C@@H](Cc1ccccc1)[C@@H](O)CN1CCN(Cc2cccnc2)C[C@H]1C(=O)NC(C)(C)C ; method: fluorescence ; measure: IC50 ; value: 0.002 µg/mL
COC(=O)N1C2C3(CO)C(c4ccccc4)C4(CO)C1C1(CO)C(c5ccccc5)C2(CO)C3N(C(=O)OC)C41 ; method: absorbance ; measure: IC50 ; value: >50 µM
CSCC[C@H](NC(=O)[C@H](CC(C)C)NC(=O)[C@@H](NC(=O)CCCCCCCCCCCCCCC(=O)N[C@@H](CC(N)=O)C(=O)N[C@@H](Cc1ccccc1)C(=O)O)C(C)O)C(=O)O ; measure: IC50 ; value: >5.5 µM
Cc1cnccc1C(=O)N[C@H](CSc1ccccc1)[C@@H](O)CN1CCN(Cc2cccnc2)C[C@H]1C(=O)NC(C)(C)C ; method: fluorescence ; measure: IC50 ; value: 0.073 µg/mL
CCOC(=O)[C@]12CCC(C)(C)CC1C1=CCC3[C@@]4(C)CCC(=O)[C@@](C)(COC(=O)CCC(=O)O)C4CC[C@@]3(C)[C@]1(C)CC2 ; method: substrate cleavage / fluorescence ; measure: IC50 ; value: 66.8 µM
CC(C)(C)OCC(=O)N[C@@H](Cc1ccccc1)[C@@H](O)[C@H](O)[C@H](Cc1ccccc1)NC(=O)[C@@H](NC(=O)COc1ccccc1)C1CCCS1 ; method: substrate cleavage ; measure: IC50 ; value: 0.25 µM
O=C(Oc1ccccc1)N1C2C3(CO)C(c4ccccc4)C4(CO)C1C1(CO)C(c5ccccc5)C2(CO)C3N(C(=O)Oc2ccccc2)C41 ; method: absorbance ; measure: IC50 ; value: >25 µM
CC(=O)O[C@H]1CC[C@]2(C)[C@H]3CC=C4[C@@H]5CC(C)(C)CC[C@]5(C(=O)O)CC[C@@]4(C)[C@]3(C)CC[C@H]2C1(C)C ; method: HPLC ; measure: IC50 ; value: 9 µM
CC(C)[C@H](NC(=O)OCc1ccccc1)C(=O)N[C@@H](Cc1ccccc1)[C@H](O)[C@@H](O)[C@H](Cc1ccccc1)NC(=O)[C@@H](NC(=O)[C@H](Cc1c[nH]c2ccccc12)NC(=O)COc1ccccc1)C(C)C ; method: substrate cleavage ; measure: IC50 ; value: 0.015 µM
CC(=O)Oc1cccc(C(=O)N[C@@H](Cc2ccccc2)[C@H](O)CN2C[C@H]3CCCC[C@H]3C[C@H]2C(=O)NC(C)(C)C)c1C ; method: fluorescence ; measure: IC50 ; value: 0.158 µg/mL
CSCC[C@H](NC(=O)CCCCCCCCCCCCCCC(=O)N[C@H](C(=O)N[C@@H](CC(C)C)C(=O)N[C@@H](Cc1ccccc1)C(N)=O)C(C)O)C(=O)N[C@@H](Cc1ccccc1)C(=O)O ; measure: IC50 ; value: 2.2 µM
CC(C)(C)OC(=O)N1C2C3(CO)C(c4ccccc4)C4(CO)C1C1(CO)C(c5ccccc5)C2(CO)C3N(C(=O)OC(C)(C)C)C41 ; method: absorbance ; measure: IC50 ; value: 20.1 µM
CC1(C)CC[C@]2(C(=O)O)CC[C@]3(C)C(=CCC4[C@@]5(C)CC[C@H](OC(=O)CCCC(=O)O)C(C)(C)C5CC[C@]43C)C2C1 ; method: HPLC ; measure: IC50 ; value: 4 µM

A second listing of 3 rows from above:

{"compound": "CCOC(=O)[C@]12CCC(C)(C)CC1C1=CCC3[C@@]4(C)CCC(=O)[C@@](C)(COC(=O)CCC(=O)O)C4CC[C@@]3(C)[C@]1(C)CC2", "method": "substrate cleavage / fluorescence", "measure": "IC50", "value": "66.8 µM"}
{"compound": "Cc1cc2oc(=O)[nH]c2c(C)c1OCC(=O)N[C@@H](Cc1ccccc1)C[C@H](O)[C@H](Cc1ccccc1)NC(=O)O[C@H]1CO[C@H]2OCC[C@H]21", "measure": "IC50", "value": "<0.0005 µM"}
{"compound": "CC1(C)CC[C@]2(C(=O)NCCCCCC(=O)O)CC[C@]3(C)C(=CCC4[C@@]5(C)CC[C@H](OC(=O)CCCCC(=O)O)C(C)(C)C5CC[C@]43C)C2C1", "method": "HPLC", "measure": "IC50", "value": "1.7 µM"}

Conditions beyond the fields shown may differ between rows.